Experimental findings from article PMC6983991, “Toxicity and Anti-promastigote Activity of Benzoxazinoid Analogs Against Leishmania (Viannia) braziliensis and Leishmania (Leishmania) infantum” (Advanced Pharmaceutical Bulletin, 2019) are described below.

Data set [1] relates to Leishmania (L.) infantum (MHOM/BR/74/PP75) promastigotes. In words: Anti-promastigote activity, MTT colorimetric assay. In kind it is cell-based. To be noted: ratio of CC50 (hamster spleen cells) to GM of IC50; CC50 >400 taken as 400. As to the method:
(§1) Promastigotes of Leishmania (V.) braziliensis (MHOM/BR/75/M2903) and Leishmania (L.) infantum (MHOM/BR/74/PP75) were grown in a biphasic medium. The solid phase was composed of Nicolle–Novy–MacNeals (NNN) medium with 15% defibrillated rabbit blood. Already in the liquid phase, we employed Roswell Park Memorial Institute (RPMI)-1640 (Sigma-Aldrich, St. Louis, USA) or Liver Infusion Tryptose (LIT) medium with 15% fetal bovine serum (Gibco – Thermo Fisher Scientific, Waltham USA), both supplemented with 1% of penicillin-streptomycin antibiotic solutions (10.000 U/mL of penicillin and 10.000 μg/mL of streptomycin; Gibco – Thermo Fisher Scientific, Waltham, USA). Cultures were maintained in an incubator at 25°C until parasites reached logarithmic phase (4 days). Next, the cultures were centrifuged and the pellet was suspended in RPMI-1640 or LIT for counting promastigotes using a Neubauer hemocytometer under an optical microscope (Axiostar Plus Carl Zeiss, Jena, Germany) at 400x magnification. Subsequently, parasites were diluted in RPMI-1640 or LIT medium at a final concentration of 1 x 10^6parasites/mL for use in antileishmanial assays.
(§2) The 50% inhibitory concentration (IC50) against L. (V.) braziliensis and L. (L.) infantum was evaluated by determination of the parasite viability using the colorimetric 3-(4,5-dimethylthiazol-2-yl)-2,5-diphenyltetrazolium bromide (MTT) method.[19] Initially, 100 μL of the promastigote suspension prepared in RPMI-1640 or LIT medium (1 × 10^6cells/mL) was added in each well of the 96-well microplate. Parasites were then treated with two-fold serial dilutions (from 3.12 to 400 µg/mL) of Bex-derived analogs prepared in 10% dimethyl sulfoxide (DMSO) (Sigma-Aldrich, St. Louis, USA) and the microplates were incubated at 25°C for 48 h. Next, 20 μL of MTT solution at 5 mg/mL (Sigma-Aldrich, St. Louis, USA) was added to the parasite cultures and the plates were covered with laminated paper and incubated at 37°C for 4 h. Finally, the plates were centrifuged at 1500 rpm for 15 min at 4°C (Heraeus-Megafuge 11R Centrifuge - Thermo Fisher Scientific, Waltham USA) and the formazan crystals formed were dissolved by the addition of 200 μL 10% DMSO. After further incubation for 5 min at room temperature, absorbance at 570 nm of samples measured using a microplate reader (Metller Toledo, Brazil). Meglumine antimoniate (Glucantime®Sanofi-aventis, France) and amphotericin B (Eurofarma, Brazil) were included as positive controls, and 10% DMSO solution was used as a solvent control. Samples containing RPM1-1640 or LIT only were used to control the sterility of media and samples containing inoculum and medium, but not compounds, were employed as growth controls.

Data set [2] deals with Leishmania (V.) braziliensis (MHOM/BR/75/M2903) promastigotes. In words: Anti-promastigote activity, MTT colorimetric assay. The data set is classed as cell-based. The conditions noted are these: ratio of CC50 (hamster spleen cells) to GM of IC50; CC50 >400 taken as 400. As to the method:
as §1, §2

`C[C@@H]1[C@H](O)[C@@H](C)/C=C/C=C/C=C/C=C/C=C/C=C/C=C/[C@H](O[C@@H]2O[C@H](C)[C@@H](O)[C@H](N)[C@@H]2O)C[C@@H]2O[C@](O)(C[C@@H](O)C[C@@H](O)[C@H](O)CC[C@@H](O)C[C@@H](O)CC(=O)O[C@H]1C)C[C@H](O)[C@H]2C(=O)O` [ANFO, Amphotericin B, reference compound]: in data set [1], the “SI L. infantum” value is listed as 2.15. In data set [2], the “SI L. braziliensis” value amounted to 2.68.
The like results for `CC1Oc2ccccc2N(O)C1=O` (stereo not drawn) [Bex2] were, in that order, 2.53 and 2.59.
On to `CCC1Oc2ccccc2N(O)C1=O` (stereo not drawn) [Bex3], for which the “SI L. infantum” value in data set [1] was determined as 1.16. Besides, the “SI L. braziliensis” value in data set [2] is listed as 1.12.
The like results for `O=C1COc2cccnc2N1O` [Pyr1] were, in that order, 3.96 and 3.59.
Turning to `CC1Oc2cccnc2N(O)C1=O` (stereo not drawn) [Pyr2], in data set [1], the “SI L. infantum” value worked out at 3.48. Further, the “SI L. braziliensis” value in data set [2] turned out to be 3.90.
In the same order, the values of `CCCC1Oc2cccnc2N(O)C1=O` (stereo not drawn) [Pyr4] are 2.17 and 2.01.
